Assay results from the supplement of paper PMC4206461.
This is a selection; strong and weak results do not stand in their true shares.

Tested on: Pseudomonas aeruginosa PA14 dppBCDF deletion mutant
Experiment: respiration area under curve with compound as sole nitrogen source, 24 h (OmniLog AUC (arbitrary units)); higher = more respiration / better utilisation as nitrogen source, active = 2000 or more
Conditions: plate: PM8
Procedure: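 Biolog Phenotype MicroArray plates PM6-PM8: each di/tripeptide is the sole nitrogen source. Tetrazolium reduction was read in the OmniLog every 15 min for 24 h at 37°C and summarised as area under the respiration curve (arbitrary units). Values below 2000 count as no respiration. Strain is the dipeptide ABC transporter deletion mutant. Lys/His/Cys peptides are excluded (dye reduction without growth).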

Row | Structure (SMILES) | respiration area under curve
1 | CC(C)C[C@H](N)C(=O)N[C@@H](Cc1ccc(O)cc1)C(=O)O | active: 6090
